Measured values from several laboratories, pooled; numbers as filed in NIAID ChemDB.

All rows: cytotoxicity tests; cell line: MT-4; endpoint: CC50

Blank or dashed fields: not listed here. Rows are shuffled and stem from different studies. CCn is the concentration with n% toxicity to the cells.

COC(=O)C1CSC(c2cccnc2)N1S(=O)(=O)c1cccc2c(N(C)C)cccc12 ; value: >1000 µM
C[C@H]1Cn2c(=O)[nH]c3cc(Cl)cc(c32)CN1CCC1CC1 ; value: >250 µg/mL
Nc1nc(-c2ccc(Br)cc2Br)c(SCC(=O)Nc2ccc(Cl)cc2Cl)s1 ; read by: MTT ; value: 20.73 µM
Cc1cn([C@@H]2O[C@H](CO[Si](C)(C)C(C)(C)C)[C@@H](O[Si](C)(C)C(C)(C)C)[C@H]2O)c(=O)n(CC(=O)ON)c1=O ; value: 4.4 µM
CCC(C)Oc1nc(Cc2cc(C)cc(C)c2)c(C)c(=O)[nH]1 ; value: >333 µM
Cc1ccccc1NC(=O)CSc1sc(Cl)nc1-c1ccc(Br)cc1Br ; read by: MTT ; value: 26.94 µM
Nc1ccn([C@H]2CC[C@@H](CO)O2)c(=O)n1 ; value: 9.1 µM
COc1nc(Cc2cc(C)cc(C)c2)c(C)c(=O)[nH]1 ; value: >387 µM
C/C=C(/C)C(=O)O[C@]12C(C3C=C(CO)C[C@]4(O)C(=O)C(C)=CC4[C@@]3(O)[C@H](C)[C@H]1OC(C)=O)C2(C)C ; value: >500 µg/mL
Fc1ccc(F)c(C2OCc3nc4ccccc4n32)c1 ; value: 34.9 µM
CCOP(=O)(OC[C@@H]1C=C[C@H](n2cc(C)c(=O)[nH]c2=O)O1)C(=O)NC ; read by: MTT ; value: 88.4 µM
Cc1cc(C)cc(Cc2nc(OC3CCCCC3)[nH]c(=O)c2C)c1 ; value: >307 µM
CCCCCCCCCC(=O)O[C@@]12[C@H](OC(C)=O)[C@@H](C)[C@@]3(O)[C@@H](C=C(CO)C[C@]4(O)C(=O)C(C)=C[C@@H]34)[C@@H]1C2(C)C ; value: >62.5 µg/mL
O=S1(=O)NC(Cc2cccc3ccccc23)=CC(=NC2CCN(Cc3ccc(Br)cc3)CC2)N1 ; read by: MTT ; value: 83.78 µM
CC1CCCCN1CCCNC(=O)Cc1ccc(CC(=O)NCCCN2CCCCC2C)cc1 ; read by: MTT ; value: >266 µM
Cc1cn([C@H]2CC[C@@H](CO)O2)c(=O)[nH]c1=O ; value: >125 µM
Cc1cn([C@@H]2O[C@H](CO[Si](C)(C)C(C)(C)C)[C@@H](O)[C@H]2O[Si](C)(C)C(C)(C)C)c(=O)n(CC#N)c1=O ; value: 6.7 µM
Cc1cn([C@H]2C=C[C@@H](CO)O2)c(=O)[nH]c1=O ; read by: MTT ; value: 314 µM
CCC(C)Oc1cc(=O)[nH]c(Sc2cccc(C)c2)n1 ; value: 171 µM
C[C@H](Cn1cnc2c(=O)[nH]c(N)nc21)OCP(=O)(O)O ; value: >100 µg/mL
Nc1nc2c(ncn2[C@H]2CC[C@@H](CO)O2)c(=O)[nH]1 ; value: 486 µM
Nc1ncnc2c1ncn2[C@H]1CC[C@@H](CO)O1 ; value: >250 µM
CC(C)=CCN1Cc2cccc3[nH]c(=S)n(c23)CC1C ; value: 25 µg/mL
CS(=O)(=O)c1ccc(CN2CCC(N=C3C=C(Cc4cccc5ccccc45)NS(=O)(=O)N3)CC2)cc1 ; read by: MTT ; value: >232 µM
O=c1[nH]cnc2c1ncn2[C@H]1CC[C@@H](CO)O1 ; read by: MTT ; value: >211 µM
O=C(Cc1ccc(CC(=O)NCCCN2CCCC2)cc1)NCCCN1CCCC1 ; read by: MTT ; value: >156 µM
O=C(CSc1sc(Cl)nc1-c1ccc(Br)cc1Br)Nc1cccnc1Cl ; read by: MTT ; value: 23.24 µM
O=S1(=O)NC(Cc2ccc(Cl)cc2Cl)=CC(=NC2CCN(Cc3c(Cl)cccc3Cl)CC2)N1 ; read by: MTT ; value: 48.2 µM
CC1CCCCN1CCCCNCc1ccc(CNCCCCN2CCCCC2C)cc1 ; read by: MTT ; value: >56.47 µM
C=CC[C@@H]1/C=C(/C)C[C@H](C)C[C@H](OC)[C@H]2O[C@@](O)(C(=O)C(=O)N3CCCC[C@H]3C(=O)O[C@H](/C(C)=C/[C@@H]3CC[C@@H](O)[C@H](OC)C3)[C@H](C)[C@@H](O)CC1=O)[C@H](C)C[C@@H]2OC ; value: 10.9 µg/mL
Fc1cccc(F)c1C1SCc2nc3ccccc3n21 ; value: 49 µM
CC(C)(C)C(=O)SCCOC(=O)P(=O)(O)OCCSC(=O)C(C)(C)C ; value: >100 µM
COC(=O)CS(=O)(=O)c1cnc(Nc2ccc(C#N)cc2)nc1Oc1c(C)cc(C#N)cc1C ; read by: MTT ; value: >208.4 µM
CCCCSc1nc(N)cc(Nc2cccc3ccccc23)n1 ; value: 39 µM
COc1ccc(OC)c2c1c(/C(O)=C/C(=O)C(=O)O)cn2Cc1ccc(F)cc1 ; value: 213 µM
O=C(CCC(=O)N1CCN(CCNC(=S)Nc2ccc(Br)cn2)CC1)NCC(=O)OC[C@@H]1C=C[C@H](n2ccc(=O)[nH]c2=O)O1 ; read by: MTT ; value: >100 µM
Cc1cn([C@H]2C=C[C@@H](CO)O2)c(=O)[nH]c1=O ; value: 1.2 µM
Cc1cccc(Cc2cc(=O)[nH]c(OC(C)C)n2)c1 ; value: 263 µM
Cc1cn([C@@H]2O[C@H](CO[Si](C)(C)C(C)(C)C)[C@@H](O)[C@H]2O[Si](C)(C)C(C)(C)C)c(=O)n(CC(=O)O)c1=O ; value: 18.8 µM
Nc1nc(N)c2ncn(C[C@@H](CF)OCP(=O)(O)O)c2n1 ; value: >100 µg/mL
O=C(CSc1sc(Cl)nc1-c1ccc(Br)cc1Br)Nc1ccccc1Cl ; read by: MTT ; value: 17.45 µM
O=c1ccn([C@H]2CC[C@@H](CO)O2)c(=O)[nH]1 ; value: >250 µM
CCC(C)Oc1cc(=O)[nH]c(S(=O)(=O)c2ccccc2Cl)n1 ; value: >200 µM
Fc1cccc(F)c1[C@H]1SCc2nc3ccccc3n21 ; value: 25 µg/mL
CCCCSc1nc(N)cc(Sc2ccccc2)n1 ; value: 123 µM
CC(C)(C)[Si](C)(C)OC[C@@H]1CC[C@H](n2cnc3c(=O)n(CC(=O)OCc4ccccc4)cnc32)O1 ; value: 29.3 µM
c1cn(CCCNCc2ccc(CNCCCn3ccnc3)cc2)cn1 ; read by: MTT ; value: 168.8 µM
CCCCC/C=C\C/C=C\CCCCCCCC(=O)OCC1=C[C@H]2[C@@H]3C(C)(C)[C@]3(OC(C)=O)[C@H](O)[C@@H](C)[C@]2(O)[C@@H]2C=C(C)C(=O)[C@@]2(O)C1 ; value: >62.5 µg/mL
CCNC(=O)[C@@H](NC(=O)Cc1ccccc1)[C@@H]1N[C@@H](C(=O)NCCNC(=O)[C@@H]2N[C@@H]([C@H](NC(=O)Cc3ccccc3)C(=O)NCC)SC2(C)C)C(C)(C)S1 ; value: >100 µM
C[C@@]12OC(=O)C[C@@H]1[C@H]1Oc3c(c(O)cc(O)c3[C@@H]3c4ccc(O)cc4O[C@H](c4ccc(O)cc4)[C@H]3O)C[C@H]1O2 ; read by: MTT ; value: >333 µM
CN[C@H]1CO[C@@H]2OCC[C@H](OC(=O)N[C@@H](Cc3ccccc3)[C@H](O)CN(CC(C)C)S(=O)(=O)c3ccc4nc(NC5CC5)sc4c3)[C@@H]21 ; read by: MTT ; value: 38 µM
N#CCN1C(=O)N(Cc2cccc(Cl)c2)S(=O)(=O)c2cscc21 ; read by: MTT ; value: >119 µM
Cc1cccc(Cc2cc(=O)[nH]c(OCC(C)C)n2)c1 ; value: 132 µM
N#Cc1ccccc1CN1CCC(N=C2C=C(Cc3ccc(Cl)cc3Cl)NS(=O)(=O)N2)CC1 ; read by: MTT ; value: 121 µM
Cc1cccc(Cc2cc(=O)[nH]c(=O)[nH]2)c1 ; value: >463 µM
O=C(CCC(=O)N1CCN(CCNC(=S)Nc2ccc(Br)cn2)CC1)NCC(=O)OCC#Cc1cn([C@H]2CC[C@@H](CO)O2)c(=O)[nH]c1=O ; read by: MTT ; value: >10 µM
c1cc(CNCCCN2CCOCC2)ccc1CNCCCN1CCCC1 ; read by: MTT ; value: >66.7 µM
Cn1ncc2c1S(=O)(=O)N(Cc1cccc(Cl)c1)C(=O)N2CC#N ; read by: MTT ; value: 201.3 µM
O=C(Cc1ccc(CNCCCN2CCOCC2)cc1)NCCCN1CCOCC1 ; read by: MTT ; value: >59.73 µM
Cc1cccc(C)c1OCC(=O)N[C@@H](Cc1ccccc1)[C@@H](O)C[C@H](Cc1ccccc1)NC(=O)[C@H](C(C)C)N1CCCNC1=O ; read by: MTT ; value: 60 µM
Cc1cn([C@H]2C[C@H](N=[N+]=[N-])[C@@H](CO)O2)c(=O)[nH]c1=O ; value: 150 µM
Cn1ncc2c1S(=O)(=O)N(Cc1cccc(Cl)c1)C(=O)N2Cc1ccccc1C#N ; read by: MTT ; value: 233.3 µM
N#Cc1cccc(CN2CCC(N=C3C=C(Cc4ccc(Cl)cc4Cl)NS(=O)(=O)N3)CC2)c1 ; read by: MTT ; value: 99.87 µM
O=S(=O)(c1cccc2ccccc12)N1CCSC1c1cccnc1 ; value: >1000 µM
CC1(C)S[C@H]([C@H](NC(=O)Cc2ccccc2)C(=O)NCc2ccccc2)N[C@H]1C(=O)N[C@H](Cc1ccccc1)[C@H](O)CC(=O)NCc1ccccc1 ; value: >100 µM
CN(C)c1cccc2c(S(=O)(=O)N3CCSC3c3ccncc3)cccc12 ; value: >5.56 µM
CC(C)=CCN1Cc2c(Br)ccc3[nH]c(=S)n(c23)C[C@@H]1C ; value: 25.4 µg/mL
CCCCCCCCCC(=O)O[C@@H]1[C@@H](C)[C@@]2(O)C(C=C(CO)C[C@]3(O)C(=O)C(C)=CC23)C2C(C)(C)[C@@]21OC(=O)C(C)CC ; value: >31.3 µg/mL
CCOC(=O)P(=O)(OCc1ccc(Cl)cc1)OCc1ccc(Cl)cc1 ; value: >10 µM
Cc1ccnc2c1NC(=O)c1cccnc1N2C1CC1 ; read by: MTT ; value: 683 µM
c1cc(CNCCN2CCCC2)ccc1CNCCN1CCCC1 ; read by: MTT ; value: >75.6 µM
CN[C@H]1CO[C@@H]2OCC[C@H](OC(=O)N[C@@H](Cc3cccc(OC)c3)[C@H](O)CN(CC(C)C)S(=O)(=O)c3ccc4nc(NC(C)C)sc4c3)[C@@H]21 ; read by: MTT ; value: 33 µM
Cn1ncc2c1S(=O)(=O)N(Cc1cccc(Cl)c1)C(=O)N2Cc1ccc(Cl)cc1Cl ; read by: MTT ; value: >257.5 µM
O=S1(=O)NC(Cc2cccc3ccccc23)=CC(=NC2CCN(Cc3c(Cl)cccc3Cl)CC2)N1 ; read by: MTT ; value: 54.73 µM
Cc1cn([C@H]2C[C@H](N=[N+]=[N-])[C@@H](COP(=O)(O)C(=O)OCCSC(=O)C(C)(C)C)O2)c(=O)[nH]c1=O ; value: >100 µM
CC(C)(C)NC(=O)[C@@H]1C[C@@H]2CCCC[C@@H]2CN1C[C@@H](O)[C@H](Cc1ccccc1)NC(=O)[C@H](CC(N)=O)NC(=O)c1ccc2ccccc2n1 ; read by: MTT ; value: >0.3 µg/mL
Nc1ncnc2c1ncn2C[C@@H](CF)OCP(=O)(O)O ; value: >100 µg/mL
Cc1cc(C#N)cc(C)c1Oc1nc(Nc2ccc(C#N)cc2)ncc1SCC(=O)N1CCSCC1 ; read by: MTT ; value: >208.4 µM
CCCCCCCCOC(=O)P(=O)(OCc1ccc(Cl)cc1)OCc1ccc(Cl)cc1 ; value: >10 µM
CO[C@H]1O[C@@H](n2ccc(=O)[nH]c2=O)C[C@@H]1N=[N+]=[N-] ; value: 244 µM
Cc1c(Sc2ccccc2)n(COCCO)c(=O)[nH]c1=O ; value: 740 µM
C[C@H](Cn1cnc2c(=O)[nH]c(N)nc21)OCP(=O)(O)O ; value: >333 µM
Nc1nc(-c2ccc(Br)cc2Br)c(SCC(=O)Nc2cccnc2Cl)s1 ; read by: MTT ; value: 45.73 µM
Nc1cc(Nc2cccc3ccccc23)nc(Cl)n1 ; value: 7.6 µM
CCC(C)Oc1nc(Cc2cccc(C)c2)c(C)c(=O)[nH]1 ; value: >350 µM
Cc1cn([C@@H]2O[C@H](CO[Si](C)(C)C(C)(C)C)[C@@H](O[Si](C)(C)C(C)(C)C)[C@H]2O)c(=O)n(CCO)c1=O ; value: 35 µM
Cc1cn([C@H]2C[C@H](N=[N+]=[N-])[C@@H](CO)O2)c(=O)[nH]c1=O ; read by: MTT ; value: >6.3 µM
O=c1ccn([C@H]2C=C[C@@H](CO)O2)c(=O)[nH]1 ; value: 27 µM
Nc1nc(N)c2ncn(CCOCP(=O)(O)O)c2n1 ; value: 48 µM
CCC(C)Oc1nc(Cc2cc(C)cc(C)c2)cc(=O)[nH]1 ; value: >349 µM

A second listing of 6 rows from above:

SMILES | read by | value
O=S1(=O)NC(Cc2cccc3ccccc23)=CC(=NC2CCN(Cc3c(Cl)cccc3Cl)CC2)N1 | MTT | 54.73 µM
COc1nc(Cc2cc(C)cc(C)c2)c(C)c(=O)[nH]1 | - | >387 µM
COC(=O)C1CSC(c2cccnc2)N1S(=O)(=O)c1cccc2c(N(C)C)cccc12 | - | >1000 µM
Cc1ccnc2c1NC(=O)c1cccnc1N2C1CC1 | MTT | 683 µM
Fc1ccc(F)c(C2OCc3nc4ccccc4n32)c1 | - | 34.9 µM
CC(C)(C)C(=O)SCCOC(=O)P(=O)(O)OCCSC(=O)C(C)(C)C | - | >100 µM